# Mutational scan of HIV-1 Vif (1203) in cells with APOBEC3G

Data from the supplement of Langley et al. 2025, preprint, doi:10.1101/2025.10.20.683452.

Protein: Vif of HIV-1 1203 (a subtype B primary isolate). Residues 12-115 were scanned and are shown below; the first letter is residue 12.
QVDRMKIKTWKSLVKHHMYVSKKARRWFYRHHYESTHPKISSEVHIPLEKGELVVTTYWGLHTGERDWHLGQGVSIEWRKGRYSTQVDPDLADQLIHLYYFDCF

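Pooled viruses with one designed change each in Vif went through two 72 h rounds in SupT1 cells expressing APOBEC3G. Each of three replicates was sequenced after round two and set against the merged round-one pool. The overlap of vif with pol had been removed, so integrase is unaffected.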

Values are log2 enrichment relative to wild type (0); lower means weaker defence against APOBEC3G and poorer growth. Substitutions are written as wild-type residue, site number, new residue. The median of three replicates is given, with the replicates in brackets. Input reads are the counts in the merged round-one pool, before selection. Not every substitution is listed.

change,input reads,log2 enrichment (median)
A103C,450,-2.62 (-0.26 -3.80 -2.62)
A103E,168,-3.03 (-1.60 -3.03 -3.12)
A103G,31,-3.42 (-3.58 -3.42 -3.03)
A103I,676,-3.06 (-0.31 -3.32 -3.06)
A103N,354,-2.27 (-1.78 -2.39 -2.27)
A103P,149,-2.95 (-5.82 -2.86 -2.95)
A103T,214,-2.73 (-2.89 -2.73 -2.09)
A103W,435,-3.28 (-3.28 -3.51 -1.61)
D104C,413,1.20 (2.40 0.95 1.20)
D104E,24,0.72 (0.72 -3.03 0.83)
D104F,408,-2.38 (-2.38 -2.57 -2.17)
D104H,30,-1.36 (-0.04 -1.76 -1.36)
D104P,18,-2.23 (-1.19 -2.63 -2.23)
D104Q,148,-3.46 (-3.46 -4.05 -1.77)
D104R,114,-1.69 (-3.08 -1.55 -1.69)
D104Y,79,-0.79 (-0.79 -1.03 0.88)
Q105F,178,-0.66 (-2.61 0.72 -0.66)
Q105G,106,-2.45 (-2.52 -2.00 -2.45)
Q105I,250,-1.92 (0.50 -2.15 -1.92)
Q105L,154,-1.77 (-1.77 -1.18 -2.14)
Q105N,46,-1.65 (-4.13 -1.65 0.67)
Q105R,165,-3.00 (-4.38 -3.00 -2.60)
Q105V,126,-2.70 (1.17 -3.09 -2.70)
Q105Y,1092,-2.59 (-1.76 -2.59 -2.85)
L106A,66,-0.79 (-1.18 -0.79 -0.38)
L106D,20,4.17 (4.17 0.91 5.46)
L106G,57,-1.96 (-1.63 -1.96 -2.28)
L106I,195,-2.50 (-2.50 -3.72 -1.93)
L106P,773,-1.95 (0.03 -2.82 -1.95)
L106Q,166,-2.51 (-2.51 -2.11 -3.08)
L106R,616,-2.34 (-1.67 -3.46 -2.34)
L106W,21,-2.86 (-3.02 -2.86 -2.45)
L106Y,233,-2.06 (-3.29 -2.06 0.65)
I107A,147,-1.32 (-1.71 1.64 -1.32)
I107K,258,-2.20 (-2.91 -2.20 -1.95)
I107N,57,-4.28 (-4.44 -4.28 -0.69)
I107P,149,0.81 (0.81 -1.26 2.27)
I107Q,977,-1.81 (-1.81 -2.34 0.30)
I107V,91,-2.21 (0.32 -3.36 -2.21)
I107W,184,-2.26 (-1.60 -2.26 -2.38)
I107Y,176,-1.39 (-0.77 -2.19 -1.39)
H108C,108,-3.76 (-3.76 -2.86 -4.78)
H108D,32,-1.12 (-3.61 -1.12 0.13)
H108F,165,-1.48 (-1.43 -1.88 -1.48)
H108K,159,-2.74 (-2.74 -1.09 -3.75)
H108L,217,-3.55 (-3.55 -4.60 0.37)
H108Q,29,3.96 (3.96 -0.50 4.47)
H108S,127,-2.20 (-1.49 -2.25 -2.20)
H108T,339,-3.66 (-4.19 -3.66 -1.56)
L109F,205,1.33 (-1.51 1.36 1.33)
L109K,30,-3.34 (-3.52 -3.34 -2.95)
L109S,132,-2.65 (-0.08 -2.65 -2.75)
L109V,141,-1.46 (-1.48 -1.46 -1.08)
L109Y,313,-2.97 (-2.97 -3.53 -1.56)
Y110A,142,-1.49 (-1.20 -1.49 -5.15)
Y110F,144,-3.27 (-3.43 -3.27 -0.78)
Y110I,30,0.90 (-0.33 0.90 5.85)
Y110P,190,-2.45 (-2.45 -1.91 -3.99)
Y110R,203,-2.92 (-3.43 -2.92 -0.31)
Y110S,98,-4.62 (-5.20 -1.87 -4.62)
Y110W,107,-1.47 (-3.00 -1.47 0.46)
Y111A,170,-1.54 (-1.76 1.51 -1.54)
Y111C,87,-2.72 (-2.72 -3.28 -1.68)
Y111D,317,-2.38 (-2.38 -2.81 -1.95)
Y111F,29,-0.49 (-1.15 -0.49 1.17)
Y111G,381,-2.21 (-2.41 0.48 -2.21)
Y111H,17,-0.58 (-1.14 -0.22 -0.58)
Y111N,210,-1.35 (-1.35 1.11 -1.66)
Y111Q,101,-2.09 (-2.09 -1.91 -2.37)
F112A,236,-1.50 (0.06 -3.16 -1.50)
F112C,28,0.81 (0.04 0.81 1.25)
F112D,27,4.13 (0.33 4.13 6.80)
F112E,734,-1.55 (0.85 -1.90 -1.55)
F112G,738,-2.61 (-2.69 -2.61 -2.18)
F112H,104,-2.49 (-2.49 -1.98 -4.71)
F112I,298,-1.27 (0.31 -1.71 -1.27)
F112K,175,-2.44 (-3.24 -2.44 -0.25)
F112L,115,1.96 (1.78 1.96 2.34)
F112M,16,-2.05 (-1.05 -2.49 -2.05)
F112N,197,-2.82 (-2.52 -4.48 -2.82)
F112P,538,0.75 (0.75 -2.99 0.83)
F112Q,291,-2.69 (-2.69 -3.46 -2.49)
F112R,23,-1.41 (-3.15 -1.41 -0.24)
F112S,74,-2.64 (-1.11 -3.08 -2.64)
F112T,353,-0.91 (-0.91 -2.82 -0.06)
F112V,790,-0.95 (-1.65 0.37 -0.95)
D113A,16,-0.90 (-2.67 -0.90 5.46)
D113C,2240,-2.65 (-2.49 -2.65 -2.73)
D113E,51,-0.95 (-4.31 -0.95 -0.92)
D113G,38,-0.14 (-2.30 5.72 -0.14)
D113H,3154,-0.83 (-0.58 -1.09 -0.83)
D113I,100,-2.95 (-2.95 -1.63 -3.11)
D113N,20,2.07 (2.07 3.81 0.77)
D113Q,556,-3.16 (-2.88 -3.16 -3.26)
D113R,23,0.71 (-0.01 0.71 5.53)
D113Y,269,-0.86 (-0.86 -2.42 -0.63)
C114A,368,0.01 (0.01 -3.26 0.46)
C114D,583,-1.51 (-1.62 0.56 -1.51)
C114E,1003,0.56 (0.56 0.61 0.23)
C114G,38,3.62 (4.46 3.62 1.33)
C114H,52,-4.15 (-4.29 -4.15 -3.76)
C114L,228,-1.74 (1.31 -1.74 -1.98)
C114P,203,-0.08 (0.97 -0.08 -1.19)
C114R,171,-2.09 (-2.09 -2.15 -2.01)
C114T,482,-2.30 (-2.28 -2.30 -2.44)
C114V,853,-3.14 (-0.26 -3.52 -3.14)
C114W,473,-3.07 (-3.07 -2.46 -3.24)
C114Y,198,-2.22 (-3.89 -1.82 -2.22)
F115H,132,-1.53 (-1.53 1.29 -2.25)
F115K,85,-2.01 (0.50 -2.01 -2.11)
F115M,515,0.49 (0.62 0.22 0.49)
F115P,66,0.93 (0.93 1.16 -0.37)
F115R,251,1.08 (1.08 -1.17 1.88)
F115V,55,-0.64 (2.43 -1.39 -0.64)
F115W,448,-2.02 (-2.02 -2.26 -0.59)

15 of these entries, quoted again:

{"change": "L106G", "input reads": "57", "log2 enrichment (median)": "-1.96 (-1.63 -1.96 -2.28)"}
{"change": "F112R", "input reads": "23", "log2 enrichment (median)": "-1.41 (-3.15 -1.41 -0.24)"}
{"change": "I107K", "input reads": "258", "log2 enrichment (median)": "-2.20 (-2.91 -2.20 -1.95)"}
{"change": "H108S", "input reads": "127", "log2 enrichment (median)": "-2.20 (-1.49 -2.25 -2.20)"}
{"change": "Y111F", "input reads": "29", "log2 enrichment (median)": "-0.49 (-1.15 -0.49 1.17)"}
{"change": "F115P", "input reads": "66", "log2 enrichment (median)": "0.93 (0.93 1.16 -0.37)"}
{"change": "F115M", "input reads": "515", "log2 enrichment (median)": "0.49 (0.62 0.22 0.49)"}
{"change": "A103G", "input reads": "31", "log2 enrichment (median)": "-3.42 (-3.58 -3.42 -3.03)"}
{"change": "H108F", "input reads": "165", "log2 enrichment (median)": "-1.48 (-1.43 -1.88 -1.48)"}
{"change": "D104E", "input reads": "24", "log2 enrichment (median)": "0.72 (0.72 -3.03 0.83)"}
{"change": "D104Q", "input reads": "148", "log2 enrichment (median)": "-3.46 (-3.46 -4.05 -1.77)"}
{"change": "F115H", "input reads": "132", "log2 enrichment (median)": "-1.53 (-1.53 1.29 -2.25)"}
{"change": "F112L", "input reads": "115", "log2 enrichment (median)": "1.96 (1.78 1.96 2.34)"}
{"change": "L106A", "input reads": "66", "log2 enrichment (median)": "-0.79 (-1.18 -0.79 -0.38)"}
{"change": "D104C", "input reads": "413", "log2 enrichment (median)": "1.20 (2.40 0.95 1.20)"}

The scan is noisy: the rank correlation of replicates is about 0.4 to 0.65, and variants with under about 50 input reads tend to read too high. Positive scores are uncertain; some enriched variants did not exclude APOBEC3G in a separate test.